Compound potency records, mixed from different reports. Data source: NIAID ChemDB in PubChem.

All rows: toxicity to cultured cells; cell line: HSB-2; measure: CC50

CCn: concentration that lowers growth or viability of the cells by n%.

structure | read by | result
Nc1nc2c(ncn2/C=C2/CC2(CO)CO)c(=O)[nH]1 |  | 104 µM
CCCCCCCCCCCCCCCCOP1(=O)CO[C@@H](Cn2ccc(N)nc2=O)CO1 |  | >1 µM
O=C(O)P(=O)(O)O | neutral red | >166 µM
OC[C@H]1CC(n2c(Br)nc3cc(Cl)c(Cl)cc32)[C@H](O)[C@@H]1O | ATP | 25 µM
Nc1nc(NC2CC2)c2ncn(/C=C3/C[C@@H]3CO)c2n1 |  | 25.6 µM
OCC1OC(n2c(Br)nc3cc(Cl)c(Cl)cc32)C(O)C1O | ATP | 62 µM
Nc1nc2c(ncn2COC(CO)CO)c(=O)[nH]1 |  | 200 µM
CCCCCCCCCCCCCCCCOP(=O)(O)CO[C@H](CO)Cn1ccc(N)nc1=O |  | >1 µM
Cn1cc(C(=O)NCc2ccc(Cl)cc2)c(=O)c2c1SC(CN1CCOCC1)C2 | MTS | >23.1 µM
Nc1nc(OCC2CC2)c2ncn(/C=C3/C[C@@H]3CO)c2n1 |  | 54 µM
C[C@H]1O[C@H](n2c(Br)nc3cc(Cl)c(Cl)cc32)[C@@H](O)[C@H]1O | ATP | 15 µM
CCCCCCCCCCCCCCCCCCOC[C@H](COP(=O)(O)CO[C@H](CO)Cn1ccc(N)nc1=O)OCc1ccccc1 |  | >1 µM
Cc1cn([C@@H]2S[C@@H](CO)[C@@H](O)[C@H]2O)c(=O)[nH]c1=O |  | >100 µg/mL
CCCCCCCCCCCCOCCCOP1(=O)CO[C@@H](Cn2ccc(N)nc2=O)CO1 |  | >1 µM
O[C@@H]1[C@H](O)CO[C@H]1n1c(NC2CC2)nc2cc(Cl)c(Cl)cc21 | ATP | >100 µM
COc1nc(N)nc2c1ncn2/C=C1/CC1(CO)CO |  | >168 µM
CC(C)Nc1nc2cc(Cl)c(Cl)cc2n1[C@@H]1OC[C@@H](O)[C@H]1O | ATP | 28 µM
Cc1cn([C@H]2C[C@H](N=[N+]=[N-])[C@@H](CO)O2)c(=O)[nH]c1=O |  | >200 µM
C#CCNc1nc(N)nc2c1ncn2/C=C1/C[C@@H]1CO |  | 162 µM
OC[C@H]1CC(n2c(NC3CC3)nc3cc(Cl)c(Cl)cc32)[C@H](O)[C@@H]1O | ATP | 82 µM
CCCCCCCCCCCCOCCCOP(=O)(O)CO[C@H](CO)Cn1ccc(N)nc1=O |  | >1 µM
O=C(NCc1ccc(Cl)cc1)c1cn2c3c(cc(CN4CCOCC4)cc3c1=O)OC(c1cccnc1)C2 | MTS | >18.8 µM
OC[C@H]1O[C@@H](n2c(Br)nc3cc(Cl)c(Cl)cc32)[C@H](O)[C@@H]1O | neutral red | >104 µM
Nc1nc2c(ncn2CC(CO)CCO)c(=O)[nH]1 |  | 640 µM
CCCCCCCC/C=C\CCCCCCCOCCCOP1(=O)CO[C@@H](Cn2ccc(N)nc2=O)CO1 |  | >1 µM

The first 3 rows once more:

structure	read by	result
Nc1nc2c(ncn2/C=C2/CC2(CO)CO)c(=O)[nH]1		104 µM
CCCCCCCCCCCCCCCCOP1(=O)CO[C@@H](Cn2ccc(N)nc2=O)CO1		>1 µM
O=C(O)P(=O)(O)O	neutral red	>166 µM

Conditions beyond the fields shown may differ between rows. Blank or dashed fields: not listed here.